Data from PubChem BioAssay AID1033 (Sanford-Burnham Center for Chemical Genomics, 2008).
Active and inactive are the calls of the source. How the calls were made is not given here.

Protein sequences, listed by entry. Tags and fused reporters are not part of them.
UniProt P0A6Y8, whole entry: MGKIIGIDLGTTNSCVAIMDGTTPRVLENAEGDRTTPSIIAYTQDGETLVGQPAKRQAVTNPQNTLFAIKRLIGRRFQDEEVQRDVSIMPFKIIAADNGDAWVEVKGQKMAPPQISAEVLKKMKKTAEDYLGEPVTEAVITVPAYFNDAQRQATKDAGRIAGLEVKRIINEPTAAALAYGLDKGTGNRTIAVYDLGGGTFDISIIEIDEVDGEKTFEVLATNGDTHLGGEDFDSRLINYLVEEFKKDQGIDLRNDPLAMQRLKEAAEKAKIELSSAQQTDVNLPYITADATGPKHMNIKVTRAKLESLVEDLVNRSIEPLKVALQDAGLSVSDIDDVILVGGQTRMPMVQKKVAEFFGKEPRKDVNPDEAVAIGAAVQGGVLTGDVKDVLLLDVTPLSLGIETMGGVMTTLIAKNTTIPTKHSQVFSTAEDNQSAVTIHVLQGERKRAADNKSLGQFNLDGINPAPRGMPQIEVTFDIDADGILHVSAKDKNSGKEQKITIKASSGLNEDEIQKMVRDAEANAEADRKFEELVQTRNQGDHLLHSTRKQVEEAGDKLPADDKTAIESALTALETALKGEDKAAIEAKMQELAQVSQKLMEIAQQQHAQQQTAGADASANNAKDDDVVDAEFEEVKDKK

Target: Chaperone protein DnaK (Escherichia coli (strain K12)) (UniProt P0A6Y8)
Test: binders of DnaK substrate-binding domain, biophysical, NMR, chaperone (AID 1033)
Conditions: Purified DnaK SBD, NMR ligand binding

Row | Compound | Kd
1 | CP(N)(=O)Oc1ccc(Cl)cc1 (configuration not stated) | inactive: > 4 mM
2 | OC1CN2CCC1CC2 (configuration not stated) | inactive: > 4 mM
